Anti-infective test results gathered from many reports (values: NIAID ChemDB through PubChem).

Common to all: tests in culture; agent: Mycobacterium tuberculosis

Two numbers with a dash give a range or band. Inhibition is in % at the dose shown (toxicity tests: loss of growth or viability). MIC bound comes from a single tested concentration. ECn: concentration that inhibits the pathogen or its effect by n%. Blank or dashed fields: not listed here. Rows are shuffled and stem from different studies. MIC50, MIC90 and the like: level of inhibition, or share of isolates inhibited.

| compound | mutations | cell line | tested at | strain or isolate | read-out | method | value |
|---|---|---|---|---|---|---|---|
| COc1ccc(-c2cc(=O)c3c(O)c(OC)c(OC4OC(COC5OC(C)C(O)C(O)C5O)C(O)C(O)C4O)cc3o2)cc1 | - | - | 200 µM | - | inhibition | fluorescence | 88.69% |
| COc1ccc2c(/C=C/c3ccc(OCCN4CCCC4)cc3)c(-c3ccccc3)c(=O)oc2c1 | - | - | - | H37Rv | MIC100 | - | >250 µg/mL |
| NC1CON(Cc2ccccc2)C1=O | - | - | - | - | MIC | - | >2500 µM |
| Clc1ccc(N2COc3ccccc3C2)c(Cl)c1 | - | - | - | - | MIC | absorbance | 1.53 µg/mL |
| CCOC(=O)C1=C(C)NC(SC)=NC1c1cn(-c2ccccc2)nc1-c1ccc(F)cc1 | - | VERO | 6.25 µg/mL | H37Rv | inhibition | resazurin | 8% |
| O=C(C=Cc1ccc(O)cc1)c1ccc(O)cc1O | - | - | 200 µM | - | inhibition | fluorescence | 83.6% |
| NCCCCCCCCCCCN | - | - | - | H37Rv | MIC | - | 3.12 µg/mL |
| CCCCCC(=O)Oc1ccc2c(c1)[nH]c1c(C)nccc12 | - | - | - | H37Rv | EC50 | - | >6.25 µg/mL |
| O=C(c1ccc(Cc2ccccc2)cc1)C(Cl)Cl | - | - | - | H37Rv | MIC | - | 6.25 µg/mL |
| CO/N=C1/C(=O)N(CCOCCOCCOCCN2C(=O)C(=O)c3cc(F)ccc32)c2ccc(C)cc21 | - | - | - | H37Rv | MIC | visual reading | 128 µg/mL |
| FC(F)(F)c1nn2cc(-c3ccc(Br)cc3)nc2s1 | - | - | - | H37Rv | MIC | - | 50 µg/mL |
| CC(=O)Oc1ccc2c(c1)[nH]c1c(C)nccc12 | - | - | - | H37Rv | EC50 | - | >6.25 µg/mL |
| CCCCN(CCCC)C(=S)C(N)=S | - | - | - | - | MIC | - | 62 µM |
| CO[C@H]1/C=C/O[C@@]2(C)Oc3c(C)c(O)c4c(O)c(cc(OCC(=O)O)c4c3C2=O)NC(=O)/C(C)=C\C=C\[C@H](C)[C@H](O)[C@@H](C)[C@@H](O)[C@@H](C)[C@H](OC(C)=O)[C@@H]1C | - | - | - | BCG | MIC | - | 0.15 µg/mL |
| CCN(CC)C(=S)C(N)=S | - | - | - | - | MIC | - | 250 µM |
| Nc1nc(Nc2ccc(Cl)cc2)cc(Nc2ccc(Cl)cc2)n1 | - | - | - | H37Rv | MIC | - | 6.25 µg/mL |
| Nc1c(-c2nc3ccccc3[nH]2)sc(=S)n1-c1ccccc1 | - | - | 6.25 µg/mL | H37Rv | inhibition | BACTEC | 10% |
| NC(=S)C(=S)N1CCCCC1 | - | - | - | - | MIC | - | 125 µM |
| CCOC(=O)Nc1c(C)n(C)n(-c2ccccc2)c1=O | - | - | 12.8 µg/mL | H37Rv | inhibition | BACTEC | 15% |
| CC[C@H](/C=C/C(C)[C@H]1CC[C@@]2(C)C3CCC4=CC(=O)CC[C@]4(C)C3CC[C@]12C)C(C)C | - | - | - | - | MIC | - | <2 µg/mL |
| O=[N+]([O-])c1nccn1CCCCNc1ccnc2cc(Cl)ccc12 | - | - | - | H37Rv | MBC | - | 4.9–9.8 µg/mL |
| O=c1oc2c(Cl)cc(Cl)cc2c(=O)n1-c1ccc(Br)cc1 | - | - | - | CNCTC MY331/88 | MIC | - | 15.8 µM |
| O=[N+]([O-])c1ccc(/C(=C\c2ccc(-c3ccccc3)o2)S(=O)(=O)c2ccccc2)o1 | - | - | - | H37Rv | MIC | BACTEC | ≥12.5 µg/mL |
| N#Cc1c(N)[n+]([O-])c2ccc(F)cc2[n+]1[O-] | - | - | - | H37Rv | MIC | - | <12.5 µg/mL |
| Cc1c2oc3c(C)ccc(C(=O)NCCN4CCCCC4)c3nc-2c(C(=O)NCCN2CCCCC2)c(N)c1=O | - | - | 12.5 µg/mL | H37Rv | inhibition | BACTEC | 10% |
| Cc1nccc2c1[nH]c1cc(OC(=O)c3ccccc3)ccc12 | - | - | - | H37Rv | EC50 | - | >6.25 µg/mL |
| CC(C)CCOc1ccc(NC(=S)Nc2ccc(OCCC(C)C)cc2)cc1 | - | - | - | - | MIC | - | 7 µM |
| FC(F)(F)c1cc(C(OB(c2ccccc2)c2ccccc2)C2CCCCN2)c2cccc(C(F)(F)F)c2n1 | - | - | - | H37Ra | MIC | resazurin | 50 µg/mL |
| COC1=C(\Br)CC2(OC/C=C\1Br)ON=C(C(=O)NCCCOc1c(Br)cc(CCN)cc1Br)[C@@H]2O | - | - | - | - | MIC | - | 30 µg/mL |
| CC(=O)Nn1c(-c2ccccc2)c[n+]2ccccc12 | - | - | - | H37Rv | MIC bound | BACTEC | >12.5 µg/mL |
| O=c1oc2ccccc2cc1-c1cn2nc(C(F)(F)F)sc2n1 | - | - | - | H37Rv | MIC | - | 40 µg/mL |
| CO[C@H]1/C=C/O[C@@]2(C)Oc3c(C)c(O)c4c(O)c(c(/C=N/N(c5ccccc5)c5ccccc5)c(O)c4c3C2=O)NC(=O)/C(C)=C\C=C\[C@H](C)[C@H](O)[C@@H](C)[C@@H](O)[C@@H](C)[C@H](OC(C)=O)[C@@H]1C | - | - | 12.5 µg/mL | H37Rv | inhibition | BACTEC | 100% |
| C(=Nc1ccccc1)c1ccccc1 | - | - | - | H37Rv | EC90 | resazurin | >250 µg/mL |
| CCc1ccc2c(c1)[nH]c1ccc(C=O)cc12 | - | - | - | H37Rv | MIC | - | >128 µM |
| CC(CC(=N)N)NC(=O)C1CCC(N)=N1.O=S(=O)(O)O | - | - | 12.5 µg/mL | H37Rv | inhibition | BACTEC | 15% |
| CO/N=C1/C(=O)N(CCOCCOCCOCCN2C(=O)C(=O)c3cc(F)ccc32)c2ccc(F)cc21 | MDR | - | - | - | MIC | visual reading | 64 µg/mL |
| CSCN1OCC(N)C1=O | - | - | - | - | MIC | - | >2500 µM |
| CC(CCN1CCN(CCC(C)CC(C)(C)C)C1=O)CC(C)(C)C | - | - | - | H37Rv | MIC | resazurin | 12.5 µg/mL |
| CN(C)CCCNC(=O)Nc1c(C#N)[n+]([O-])c2ccccc2[n+]1[O-] | - | - | 6.25 µg/mL | H37Rv | inhibition | - | 90% |
| N#CSc1c(-c2ccc(Cl)cc2)nc2sc(S(N)(=O)=O)nn12 | - | - | - | H37Rv | MIC | - | >6.25 µg/mL |
| CO/N=C1/C(=O)N(CCOCCOCCOCCn2c(O)c(N=NC(N)=O)c3cc(F)ccc32)c2ccc(F)cc21 | MDR | - | - | - | MIC | visual reading | 16 µg/mL |
| Cc1nccc2c1[nH]c1cc(OS(C)(=O)=O)ccc12 | - | - | - | H37Rv | EC50 | - | >6.25 µg/mL |
| CCN1OCC(N)C1=O | - | - | - | - | MIC | - | >2500 µM |
| CN1c2ccccc2C2C(c3ccccc3)CC[C@@H](C(=O)N3C4C[C@]5(C)CC[C@@]4(CS3(=O)=O)C5(C)C)[C@@H]21 | - | - | 12.5 µg/mL | H37Rv | inhibition | BACTEC | 34% |
| CCOC(=O)/C=C\C(=O)c1cc2ccccc2s1 | - | - | - | - | MIC | - | 0.4 µM |
| ClCCN1CCN(CCCN2c3ccccc3Sc3ccc(Cl)cc32)CC1 | - | - | - | H37Rv | MIC | - | 3.96 µg/mL |
| Cc1cc2c(cc1O)[nH]c1ccccc12 | - | - | - | H37Rv | MIC | - | 105 µM |
| O=c1oc2c(Br)cc(Br)cc2c(=O)n1-c1ccc(Cl)c(Cl)c1 | - | - | - | CNCTC MY331/88 | MIC | - | 7.94 µM |
| O=[N+]([O-])c1cccc(N2COc3ccccc3C2)c1 | - | - | - | - | MIC | absorbance | 5.5 µg/mL |
| CC(C)=CC1C[C@](C)(O)C2C3CCC4C(CC=C5C(C)(C)[C@@H](O[C@@H]6OC[C@@H](O)[C@H](OC7O[C@H](CO)[C@@H](O)[C@H](OC(=O)/C=C/c8ccc(O)cc8)[C@H]7O)[C@H]6O[C@@H]6O[C@@H](CO)[C@H](O)[C@H]6O)CC[C@@]54C)C34CC2(OO4)O1 | - | - | - | - | MIC | - | 10 µg/mL |
| Brc1ccc(N2COc3ccccc3C2)cc1 | - | - | - | - | MIC | absorbance | 2.5 µg/mL |
| NC1CON(CCO)C1=O | - | - | - | - | MIC | - | >2500 µM |
| Cc1cccc(N2CC3CC4C=CC3(C2)O4)c1 | - | - | - | H37Rv | MIC bound | BACTEC | >12.5 µg/mL |
| CN(C)CCCNC(=O)Nc1c(C#N)[n+]([O-])c2cc(Cl)c(Cl)cc2[n+]1[O-] | - | - | 6.25 µg/mL | H37Rv | inhibition | - | 99% |
| Cc1[nH]c2c(ccc3c2ccc2c(=O)c(C)c(C)[nH]c23)c(=O)c1C | - | - | - | H37Rv | MIC bound | - | >6.25 µg/mL |
| COc1ccc(-c2cn3nc(S(N)(=O)=O)sc3n2)cc1 | - | - | - | H37Rv | MIC | - | >6.25 µg/mL |
| Cc1ccc(NC(=O)CC/C(CC(=O)c2ccc(F)cc2)=N\NC(=O)C(=O)NN)cc1C | - | - | 12.5 µg/mL | H37Rv | inhibition | BACTEC | 13% |
| O=c1oc2c(Cl)cc(Cl)cc2c(=O)n1-c1ccc(Cl)c(Cl)c1 | - | - | - | CNCTC MY331/88 | MIC | - | 7.94 µM |
| CC(NC(=O)C(NC(=O)c1ccc[n+](Cc2ccccc2)c1)C(C)C)C(N)=O.[Br-] | - | - | - | H37Rv | MIC | BACTEC | ≥12.5 µg/mL |
| CO[C@H]1/C=C/O[C@@]2(C)Oc3c(C)c(O)c4c(O)c(c(/C=N/N5CCN(C/C=C/c6ccccc6)CC5)c(O)c4c3C2=O)NC(=O)/C(C)=C\C=C\[C@H](C)[C@H](O)[C@@H](C)[C@@H](O)[C@@H](C)[C@H](OC(C)=O)[C@@H]1C | - | - | - | 2242 (RIF-S) | MIC | - | 0.015 µg/mL |
| NCCCCCCCCCN | - | - | - | H37Rv | MIC | - | 3.12 µg/mL |
| O=C(c1ccc(Cc2ccccc2)cc1)C(Br)Br | - | - | - | H37Rv | MIC | - | 12.5 µg/mL |
| CCc1n[nH]c(=O)n1-c1ccncc1 | - | - | - | H37Rv | MIC bound | resazurin | >6.25 µg/mL |
| CCC(=O)Oc1ccc2c(c1)[nH]c1c(C)nccc12 | - | - | - | H37Rv | EC50 | - | >6.25 µg/mL |
| CCOc1ccc2nc(N=NC(C(C)=O)C(C)=O)sc2c1 | - | - | 6.25 µg/mL | H37Rv | inhibition | resazurin | 19% |
| CC(C)=CC1C[C@](C)(O)C2C3CCC4C(CC=C5C(C)(C)[C@@H](O[C@@H]6OC[C@@H](O)[C@H](OC7O[C@H](CO)[C@@H](O)[C@H](O)[C@H]7OC(=O)/C=C/c7ccc(O)cc7)[C@H]6O[C@@H]6O[C@@H](CO)[C@H](O)[C@H]6O)CC[C@@]54C)C34CC2(OO4)O1 | - | - | - | - | MIC | - | 50 µg/mL |
| NNC(=O)c1ccncc1 | MDR | - | - | - | MIC | visual reading | >128 µg/mL |
| COC1=C(C)C(C)(O)c2[nH]c3ccccc3c2C1=O | - | - | - | H37Rv | MIC | - | >128 µM |
| N=C1N(/N=C/c2ccccn2)C(=Nc2ccccc2)C(=S)N1c1ccccc1 | - | - | 12.5 µg/mL | H37Rv | inhibition | BACTEC | 98% |
| CCCC(=O)Oc1ccc2c(c1)[nH]c1c(C)nccc12 | - | - | 6.25 µg/mL | H37Rv | inhibition | - | 31% |
| CN=C(Cc1cc(Br)c(OCCCN)c(Br)c1)C(=O)NCCCCC(=N)N | - | - | - | - | MIC | - | 3 µg/mL |
| CO/N=C1/C(=O)N(CCOCCOCCOCCn2c(O)c(N=O)c3ccccc32)c2ccc(C)cc21 | - | - | - | H37Rv | MIC | visual reading | 256 µg/mL |
| Cc1cc(O)c2c(c1)C(=O)c1cc(O)cc(O)c1C2=O | - | - | 200 µM | - | inhibition | fluorescence | 73.09% |
| O=[n+]1c2ccc(Cl)cc2n([O-])c2ccc(Cl)cc21 | - | - | - | H37Rv | MIC | - | 12.5 µg/mL |
| O=C(c1ccc(S(=O)c2ccccc2)cc1)C(Cl)Cl | - | - | - | H37Rv | MIC | - | 3.125 µg/mL |
| COc1cc(CO)cc2c1[nH]c1ccccc12 | - | - | - | H37Rv | MIC | - | >128 µM |
| Cc1cc2c(cc1C)[n+]([O-])c(NCCCN(C)C)c(C#N)[n+]2[O-] | - | - | - | H37Rv | MIC | - | >12.5 µg/mL |
| COC(=O)c1cc(OC)c2[nH]c3ccccc3c2c1 | - | - | - | H37Rv | MIC | - | 69 µM |
| CC1CCC2(C(=O)OC3OC(COC4OC(CO)C(OC5OC(C)C(O)C(O)C5O)C(O)C4O)C(O)C(O)C3O)CCC3(C)C(=CCC4C5(C)CC(O)C(O)C(C)(CO)C5CCC43C)C2C1C | - | - | 200 µM | - | inhibition | fluorescence | 0% |
| Cc1ccc(-c2nc3sc(S(N)(=O)=O)nn3c2SC#N)cc1 | - | - | 6.25 µg/mL | H37Rv | inhibition | - | 29% |
| CC1=C(O)NC(CC(=O)C(O)CO)=CN1 | - | - | - | H37Rv | MIC | BACTEC | ≥12.5 µg/mL |
| O=C(CCl)c1ccc(S(=O)c2ccccc2)cc1 | - | - | - | H37Rv | MIC | - | 25 µg/mL |
| CNC(=O)Nc1nc2ccc([N+](=O)[O-])cc2[nH]1 | - | - | - | H37Rv | MIC bound | resazurin | >6.25 µg/mL |
| CCCCCCCCCCCC1N=C(N)N=C(N)N1c1cccc(Br)c1 | - | - | - | H37Rv | MIC | - | 6.25 µg/mL |
| Cc1c2c(n(C)c1C(=O)N1CCCCC1)CCCC2=O | - | - | 6.25 µg/mL | H37Rv | inhibition | BACTEC | 0% |
| O=C(c1cccc(-c2ccccc2)c1)C(Cl)Cl | - | - | - | H37Rv | MIC | - | 12.5 µg/mL |

The first 7 rows once more:

compound	mutations	cell line	tested at	strain or isolate	read-out	method	value
COc1ccc(-c2cc(=O)c3c(O)c(OC)c(OC4OC(COC5OC(C)C(O)C(O)C5O)C(O)C(O)C4O)cc3o2)cc1	-	-	200 µM	-	inhibition	fluorescence	88.69%
COc1ccc2c(/C=C/c3ccc(OCCN4CCCC4)cc3)c(-c3ccccc3)c(=O)oc2c1	-	-	-	H37Rv	MIC100	-	>250 µg/mL
NC1CON(Cc2ccccc2)C1=O	-	-	-	-	MIC	-	>2500 µM
Clc1ccc(N2COc3ccccc3C2)c(Cl)c1	-	-	-	-	MIC	absorbance	1.53 µg/mL
CCOC(=O)C1=C(C)NC(SC)=NC1c1cn(-c2ccccc2)nc1-c1ccc(F)cc1	-	VERO	6.25 µg/mL	H37Rv	inhibition	resazurin	8%
O=C(C=Cc1ccc(O)cc1)c1ccc(O)cc1O	-	-	200 µM	-	inhibition	fluorescence	83.6%
NCCCCCCCCCCCN	-	-	-	H37Rv	MIC	-	3.12 µg/mL